Our source for the MONOCYTE values is ChEMBL document CHEMBL3885881, “DrugMatrix”.

The species entered for the series is Rattus norvegicus. In words: DrugMatrix - Regimen: Daily Repeat. Format: toxicity, organism-based, Sprague-Dawley. The arrangement: regimen Daily Repeat, gender Male, age 6-8 weeks. The settings on record: in vivo, po, 120 h, tissue Blood, route oral GAVAGE, dose level Low, time 5 day.

Turning to COLISTIN, the MONOCYTE (24 mg/kg, vehicle 100 % WATER) was found to be 2.33%.

Substance ZIRCONIUM(IV) CHLORIDE showed an MONOCYTE ([…], dose 6.3 mg/Kg) of 2.33%.
